“And” between values parts separate entries of the source, which are not always exact repeats. Identical values can stand only once.
Key:
Pseudomonas aeruginosa [1] = experiment: Biocide efficiency (B.E.) of immobilised biocides in recirculating column test; assay type: cell-based; conditions: column length 10 cm, biocide immobilised on Amberlite XAD-4, 30° C., 13.5 ml/min
Pseudomonas aeruginosa [2] = experiment: Recirculating column test of immobilised biocide (active beads), viable bacterial counts / growth curve; assay type: cell-based; conditions: active beads on Amberlite XAD-4, 10x1 cm column, ~10^4 cfu/ml challenge, FIG. 3

Substance | B.E. (t-24 h) (Pseudomonas aeruginosa [1]) | growth of the bacteria versus control beads (Pseudomonas aeruginosa [2])
4,5-dichloro-2-n-octyl-isothiazolin-3-one | 0.77 and 0.62 | 
5-chloro-2-n-octyl-isothiazolin-3-one |  | capable of significantly limiting the growth of the bacteria
